A mixed list of measured activities; the numbers were collected in NIAID ChemDB.

Common to all: tests in culture; species: Candida albicans; read-out: MIC

Blank or dashed fields: not listed here. Rows are shuffled and stem from different studies.

smiles | strain or isolate | read by | value
CC(=O)OC12CCC(C(=O)C1)C1C(=O)N(CCCCN3CCN(c4ncccn4)CC3)C(=O)C12 | DSM 1886 | broth dilution | >100 µM
O=C(NNC(=S)Nc1ccc(F)cc1)c1cn2ccccc2n1 | ATCC 10231 | broth dilution | 64 µg/mL
COC(=O)C1OC2(CCCC(OC(C)=O)C(C)C/C=C/c3ccccc3)OC(C(=O)O)(C(OC(=O)CCCCCC/C=C/c3ccccc3)C2O)C1(O)C(=O)O | SC |  | >50 µg/mL
Cc1ccc(CSc2cc(C(N)=S)ccn2)cc1 | 44859 |  | 31.25 µM
Cc1cc(C)cc(/C=C2\SC(=O)N(CCC(=O)Nc3ccc(C)cc3Cl)C2=O)c1 |  |  | >100 µg/mL
CCCCCCS(=O)(=O)[C@H](C)[C@](O)(Cn1cncn1)c1ccc(F)cc1F | KB-8 |  | ≤0.013 µg/mL
CCc1c(OCc2ccccc2)c(=O)ccn1CCC1=NCCS1 |  |  | 100 µg/mL
NC(=S)c1ccnc(SCc2ccccc2)c1 | 44859 |  | 120 µM
Cc1c(Sc2ccccc2)[n+](=O)c2cc(Cl)ccc2n1[O-] | Clinical isolate 23 |  | 31.25 µg/mL
CCNC(=S)NNC(=O)c1cn2ccccc2n1 | ATCC 10231 | broth dilution | 64 µg/mL
CN(CCCC#CC(C)(C)C)c1cccc2c1CCC(=O)N2 | Clinical isolate 22 |  | 31.5 µg/mL
O=c1ccn(CCC2=NCCS2)cc1OCc1ccccc1 |  |  | 75 µg/mL
O=C(CCN1C(=O)S/C(=C\c2cccc(O)c2)C1=O)Nc1ccccc1 |  |  | 12.5 µg/mL
Cc1ccc(-n2nc(C)c(C3CC(=O)N(c4ccc(F)cc4)C4=C3C(=O)CC(C)(C)C4)c2Cl)cc1 | MTCC 227 | broth dilution | 1000 µg/mL
CC(C)N=C(N)c1ccc(-c2cc(=O)c3cc(C(N)=NC(C)C)ccc3o2)cc1 | ATCC 10231 |  | >50 µg/mL
Cc1ccc(-c2cnc(Nc3cnc(OCCCN4CCN(C)CC4)nc3)c(C(N)=O)n2)c(C)c1 |  | resazurin | >32 µg/mL
CCCCCS(=O)(=O)[C@H](C)[C@](O)(Cn1cncn1)c1ccc(F)cc1F | KB-8 |  | 0.1 µg/mL
CC(=O)OC12CCC(C(=O)C1)C1C(=O)N(CCCN3CCN(c4ccccc4)CC3)C(=O)C12 | DSM 1886 | broth dilution | >100 µM
Cc1c(S(=O)(=O)c2ccccc2)[n+](=O)c2ccccc2n1[O-] | Clinical isolate 13 |  | 15.6 µg/mL
Cc1nn(-c2ccccc2)c(Cl)c1C1CC(=O)N(c2ccc(F)cc2)C2=C1C(=O)CC(C)(C)C2 | MTCC 227 | broth dilution | 1000 µg/mL
COc1ccccc1N1CCN(CCCN2C(=O)C3C4CCC(OC(C)=O)(CC4=O)C3C2=O)CC1 | DSM 1886 | broth dilution | >100 µM
COc1cc(O)c2c(c1)C(=O)c1c(cc3c(c1O)-c1c(cc(C)c(C(=O)NC(CO)C(=O)O)c1O)[C@H](OC1OC(C)C(O)C(OC4OCC(O)C(O)C4O)C1O)C3O)C2=O | ATCC 38247 |  | 1.6 µg/mL
Cc1ccc(-n2nc(C)c(C3CC(=O)N(c4ccc(F)cc4)C4=C3C(=O)CCC4)c2Cl)cc1 | MTCC 227 | broth dilution | 500 µg/mL
COc1cc2c(cc1OC)C(CC#N)=NC(C)C2.Cl | 264/624 |  | 500 µg/mL
CC(=O)OC12CCC(C(=O)C1)C1C(=O)N(CCCCN3CCN(c4ccccn4)CC3)C(=O)C12 | DSM 1886 | broth dilution | >100 µM
Cc1c(OCc2ccccc2)c(=O)ccn1CCC1=NCCS1 |  |  | 75 µg/mL
Brc1ccc(Nc2nnc(-c3cn4ccccc4n3)o2)cc1 | ATCC 10231 | broth dilution | 32 µg/mL
COc1ccc(N2C(=O)CC(c3c(C)nn(-c4cccc(Cl)c4)c3Cl)C3=C2CCCC3=O)cc1 | MTCC 227 | broth dilution | 1000 µg/mL
CC(=O)OC12CCC(C(=O)C1)C1C(=O)N(CCCCN3CCN(Cc4ccccc4)CC3)C(=O)C12 | DSM 1886 | broth dilution | >100 µM
CCCCN=C(N)c1ccc2nc(-c3ccc4oc(C)cc(=O)c4c3)[nH]c2c1 | ATCC 10231 |  | 25 µg/mL
CCS[C@H](C)[C@](O)(Cn1cncn1)c1ccc(F)cc1F | KB-8 |  | 0.1 µg/mL
Cc1ccc(C)c(/C=C2\SC(=O)N(CCC(=O)Nc3ccccc3O)C2=O)c1 |  |  | 12.5 µg/mL
CCCS[C@H](C)[C@](O)(Cn1cncn1)c1ccc(F)cc1F | KB-8 |  | ≤0.013 µg/mL
NC(=S)c1ccnc(SCc2ccc(Br)cc2)c1 | 44859 |  | 62.5 µM
Cc1c(OCc2ccccc2)c(=O)ccn1CC1=NCCS1 |  |  | 100 µg/mL
COc1ccc(N2C(=O)CC(c3c(C)nn(-c4ccccc4)c3Cl)C3=C2CCCC3=O)cc1 | MTCC 227 | broth dilution | 500 µg/mL
O=c1cc(-c2ccccc2)oc2ccc(-c3nc4ccc(C5=NCCCN5)cc4[nH]3)cc12 | ATCC 10231 |  | 6.25 µg/mL
NC(=S)c1ccnc(SCc2ccc([N+](=O)[O-])cc2)c1 | 44859 |  | >500 µM
Cl.N#CCC1=NC2(CCCCC2)Cc2ccccc21 | 264/624 |  | 500 µg/mL
Clc1ccc(Nc2nnc(-c3cn4ccccc4n3)o2)cc1 | ATCC 10231 | broth dilution | 32 µg/mL
O=C(CN1C(=O)S/C(=C\c2ccc(-c3cc(=O)c4ccccc4o3)cc2)C1=O)c1ccc([N+](=O)[O-])cc1 |  |  | 12.5 µg/mL
O=C(NNC(=S)Nc1ccccc1)c1cn2ccccc2n1 | ATCC 10231 | broth dilution | 32 µg/mL
Cc1c(S(=O)(=O)c2ccccc2)[n+](=O)c2cc(Cl)ccc2n1[O-] | Clinical isolate 22 |  | 31.25 µg/mL
O=c1ccn(CC2=NCCS2)cc1O |  |  | 50 µg/mL
NC(=NC1CCCCC1)c1ccc2nc(-c3ccc4oc(-c5ccccc5)cc(=O)c4c3)[nH]c2c1 | ATCC 10231 |  | 12.5 µg/mL
O=C(CCN1C(=O)S/C(=C\c2ccccc2)C1=O)Nc1cccc(O)c1 |  |  | 3.12 µg/mL
Cc1nn(-c2ccccc2)c(Cl)c1C1CC(=O)N(c2ccc(F)cc2)C2=C1C(=O)CCC2 | MTCC 227 | broth dilution | 1000 µg/mL
O=C(CN1C(=O)S/C(=C\c2ccc(-c3cc(=O)c4ccccc4o3)cc2)C1=O)c1ccc(Cl)cc1 |  |  | 12.5 µg/mL
C[C@@H](c1ncncc1F)[C@](O)(Cn1cncn1)c1ccc(F)cc1F | W111 | broth dilution | 1 µg/mL
CCCCN=C(N)c1ccc2nc(-c3ccc4oc(-c5ccccc5)cc(=O)c4c3)[nH]c2c1 | ATCC 10231 |  | 3.12 µg/mL

7 of the rows above, restated:

smiles	strain or isolate	read by	value
CCCCN=C(N)c1ccc2nc(-c3ccc4oc(C)cc(=O)c4c3)[nH]c2c1	ATCC 10231		25 µg/mL
Cc1ccc(-n2nc(C)c(C3CC(=O)N(c4ccc(F)cc4)C4=C3C(=O)CCC4)c2Cl)cc1	MTCC 227	broth dilution	500 µg/mL
COc1cc(O)c2c(c1)C(=O)c1c(cc3c(c1O)-c1c(cc(C)c(C(=O)NC(CO)C(=O)O)c1O)[C@H](OC1OC(C)C(O)C(OC4OCC(O)C(O)C4O)C1O)C3O)C2=O	ATCC 38247		1.6 µg/mL
CC(=O)OC12CCC(C(=O)C1)C1C(=O)N(CCCCN3CCN(c4ccccn4)CC3)C(=O)C12	DSM 1886	broth dilution	>100 µM
C[C@@H](c1ncncc1F)[C@](O)(Cn1cncn1)c1ccc(F)cc1F	W111	broth dilution	1 µg/mL
CN(CCCC#CC(C)(C)C)c1cccc2c1CCC(=O)N2	Clinical isolate 22		31.5 µg/mL
CC(=O)OC12CCC(C(=O)C1)C1C(=O)N(CCCN3CCN(c4ccccc4)CC3)C(=O)C12	DSM 1886	broth dilution	>100 µM